Compound potency records, mixed from different reports. Data source: NIAID ChemDB in PubChem.

All rows: whole-cell or culture tests; agent: Candida albicans; read-out: MIC

Neighbouring rows are from separate reports. An empty or dashed field is not shown.

structure	strain	method	value
CC1(O)CC(=O)c2c(cc3ccc(-c4c5c(c(O)c6c(O)cccc46)C(=O)CC(C)(O)C5)c(O)c3c2O)C1	-	-	8 µg/mL
Clc1ccc(CCC(Cn2ccnc2)Sc2c(Cl)cccc2Cl)cc1	ATCC 14053	-	10 µg/mL
O=C1/C(=C/c2cccs2)C=C(c2ccc(Oc3ccccc3)cc2)N1Cc1ccccc1	-	-	25 µg/mL
COc1ccc(C=NC23CC4CC(CC(C4)C2)C3)cc1O	-	-	128 µg/mL
Clc1ccc(C(Cc2ccccc2)Cn2ccnc2)c(Cl)c1	-	-	100 µg/mL
O=C1NC(c2ccc(Oc3ccccc3)cc2)=C/C1=C\c1ccc(Cl)cc1	-	-	10 µg/mL
Cc1c(O)cccc1C(=O)N[C@@H](CSc1ccccc1)[C@H](O)CN1C[C@H]2CCCC[C@H]2C[C@H]1C(=O)NC(C)(C)C	I175A	-	>64 µg/mL
NNC(=S)Nn1c(-c2ccccc2)nc2ccccc2c1=O	ATCC 753	-	100 µg/mL
O=C1/C(=C/c2ccc3c(c2)OCO3)C=C(c2ccc(Oc3ccccc3)cc2)N1Cc1ccccc1	-	-	>100 µg/mL
OC(Cn1cncn1)(Cn1cncn1)c1ccc(F)cc1F	ATCC 90028	-	0.03 µg/mL
COc1ccc2[nH]c3c4ccccc4nnc3c2c1	-	-	>200 µM
Cc1ccc(-c2n[nH]c(=O)n2-n2c(C)ccc2C)cc1	ATCC16231	-	>250 µg/mL
COc1ccc2c(Cc3ccc(C(C)(C)C)cc3)c3[n+](cc2c1OC)CCc1cc2c(cc1-3)OCO2	ATCC38248	-	1.56 µg/mL
CCC(C)CC(C)CCCCCCCCC(=O)N[C@H]1C[C@@H](O)[C@H](NCCN)NC(=O)[C@@H]2[C@@H](O)CCN2C(=O)[C@H]([C@H](O)CCN)NC(=O)[C@H]([C@H](O)[C@@H](O)c2ccc(O)cc2)NC(=O)[C@@H]2C[C@@H](O)CN2C(=O)[C@H]([C@@H](C)O)NC1=O	M61	broth dilution	0.06 µg/mL
CC(=O)OCCn1c(Cc2ccc([N+](=O)[O-])cc2)nn(C(C)=O)c1=O	ATCC16231	-	>250 µg/mL
CC1Oc2ccccc2C(=O)C1n1ccnc1	PTCC 5027	agar	64 µg/mL
CCc1nc(SCC(=O)N/N=C(\C)c2ccc(Cl)cc2)n[nH]1	ATCC 90028	-	400 µg/mL
O=C(O)c1ccc(N2C(=O)CC(Nc3ccc(Oc4ccc(Cl)cc4)c(Cl)c3)C2=O)cc1	-	-	>200 µg/mL
CC(=O)c1cc2c(nc1C)CCCCCC2	-	-	25 µg/mL
CC(=O)OC12CCC(C(=O)C1)C1C(=O)N(CCCN3CCN(c4ccccn4)CC3)C(=O)C12	DSM 1886	broth dilution	>100 µM
CCc1nc(SCC(=O)N/N=C(\C)c2ccc(O)cc2)n[nH]1	ATCC 90028	-	200 µg/mL
Fc1ccc(CN(Cc2ccc(-c3ccccc3)cc2)n2ccnc2)c(F)c1	-	-	200 µM
CCc1n[nH]c(=O)n1CCO	ATCC16231	-	>250 µg/mL
CC(=O)OC12CCC(C(=O)C1)C1C(=O)N(CCCCN3CCN(c4ccc(F)cc4)CC3)C(=O)C12	DSM 1886	broth dilution	>100 µM
CC(C)C(=O)CCC[C@@H]1CO[C@@](Cn2cccc2)(c2ccc(F)cc2F)C1	CI-2	-	>100 µg/mL
COC(=O)C(C#N)C1C(=O)C(C)=C(C)C(=O)C1Sc1cccc(C)c1	Berkout KCCM 50235	-	>50 µg/mL
CC(=O)OC12CCC(C(=O)C1)C1C(=O)N(CCCCN3CCN(c4ccccc4O)CC3)C(=O)C12	DSM 1886	broth dilution	>100 µM
Clc1ccccc1C(Cc1c(Cl)cccc1Cl)Cn1ccnc1	-	-	100 µg/mL
c1ccc(N/N=C2/c3ccccc3OCC2n2cncn2)cc1	PTCC 5027	agar	16 µg/mL
CCOc1ccc(N2C(=O)CC(Nc3ccc(Oc4ccc(Cl)cc4)c(Cl)c3)C2=O)cc1	-	-	20 µg/mL
CC1C(=O)C(C)C(c2ccccc2)N(OCCc2nc3ncccc3[nH]2)C1c1ccccc1	6 (NCIM-C27)	-	200 µg/mL
CC(C)C(=N)CCC[C@H]1CO[C@@](Cn2cncn2)(c2ccc(F)cc2F)C1	CI-2	-	>100 µg/mL
COC(=O)C(C#N)C1C(=O)C(C)=C(C)C(=O)C1Sc1ccc(C)c(C)c1	Berkout KCCM 50235	-	50 µg/mL
O=C1CCCC2=C1C(c1ccc(F)cc1)N=C(SCC(=O)c1ccccc1)N2	Robin Berkho (AUCC-1720)	-	>40 µg/mL
COc1cc(/C=C2\C=C(c3ccc(Oc4ccccc4)cc3)OC2=O)ccc1OC(C)=O	-	-	>100 µg/mL
C/C(=N\NC(=O)CSc1ncn[nH]1)c1ccccc1[N+](=O)[O-]	ATCC 90028	-	400 µg/mL
COc1ccc(N2C(=O)CC(Nc3ccc(Oc4ccc(Cl)cc4)c(Cl)c3)C2=O)cc1	-	-	>200 µg/mL
CCc1n[nH]c(=O)n1-c1ccncc1	ATCC16231	-	>250 µg/mL
CC[C@@H]([C@H](C)O)n1ncn(-c2ccc(N3CCN(c4ccc(OC[C@@H]5CO[C@@](Cn6cncn6)(c6ccc(F)cc6F)C5)cc4)CC3)cc2)c1=O	M61	broth dilution	<0.001 µg/mL
C[N+](C)(C)CCOP(=O)([O-])OCCCCCCCCCCCCCCCCCCCCCCCCOP(=O)([O-])OCC[N+](C)(C)C	B311	-	6.25 µg/mL
c1ccc(-c2cnn3c4c(cnc23)CCCCCC4)cc1	-	-	25 µg/mL
Cc1cc(O)c2c(c1)C(c1ccc3cc4c(c(O)c3c1O)C(=O)CC(C)(O)C4)c1cccc(O)c1C2=O	-	-	8 µg/mL
Cc1ccccc1CN(Cc1ccc(-c2ccccc2)cc1)n1ccnc1	-	-	200 µM
O=[N+]([O-])c1ccc2[nH]c3c4ccccc4nnc3c2c1	-	-	1.6 µM
COc1ccc(CCC(Cn2ccnc2)c2ccc(Cl)cc2Cl)cc1	-	-	>100 µg/mL
CCc1n[nH]c(=O)n1N1C(=O)CCC1=O	ATCC16231	-	>250 µg/mL
N#Cc1cc2c([nH]c1=O)CCCCCC2	-	-	50 µg/mL
O=C1NC(c2ccc(Oc3ccccc3)cc2)=C/C1=C\c1ccccc1	-	-	50 µg/mL
CC(=O)OC12CCC(C(=O)C1)C1C(=O)NC(=O)C12	DSM 1886	broth dilution	>100 µM
C/C(=N\NC(=O)CSc1n[nH]c(C)n1)c1ccc([N+](=O)[O-])cc1	ATCC 90028	-	200 µg/mL
COc1ccccc1N1CCN(CCCCN2C(=O)C3C4CCC(OC(C)=O)(CC4=O)C3C2=O)CC1	DSM 1886	broth dilution	>100 µM
O=C1CC(Nc2ccc(Oc3ccc(Cl)cc3)c(Cl)c2)C(=O)N1c1ccccc1	-	-	40 µg/mL
CNC(=S)Nn1c(-c2ccccc2)nc2ccccc2c1=O	ATCC 753	-	50 µg/mL
CC(=O)c1ccc2c(c1)N(C(=O)CN1C(=O)C=CC1=O)c1ccccc1S2	NCIM no 300	-	>50 µg/mL
Clc1ccc(CC(Cn2ccnc2)c2c(Cl)cccc2Cl)cc1	-	-	100 µg/mL
COc1c(O)c2c(=O)cc(OC)c3c4c(OC)cc(=O)c5c(O)c(OC)c6c(c(c1CC(C)=C6OC(C)=O)c23)c54	-	-	22 µg/mL
COc1cc(/C=C2\C=C(c3ccc(Oc4ccccc4)cc3)OC2=O)cc(OC)c1OC	-	-	>100 µg/mL
Cc1ccc(CN(Cc2ccc(-c3ccccc3)cc2)n2ccnc2)cc1	-	-	33 µM
COc1ccc(C=NC2C3CC4CC(C3)CC2C4)cc1OC	-	-	128 µg/mL
O=C1OC(c2ccc(Oc3ccccc3)cc2)=C/C1=C\c1cccc([N+](=O)[O-])c1	-	-	25 µg/mL
C/C(=N\NC(=O)CSc1n[nH]c(C)n1)c1ccc(Cl)cc1	ATCC 90028	-	200 µg/mL
CC(C)C(=N)CCC[C@H]1CO[C@@](Cn2ccnc2)(c2ccc(F)cc2F)C1	IFO. 1385	-	12.5 µg/mL
N#CC1=C(N)N2C(=NC3=C(C(=O)CCC3)C2c2ccc(F)cc2)S1	Robin Berkho (AUCC-1720)	-	40 µg/mL
CCCCCOc1ccc(-c2cc(-c3ccc(C(=O)N[C@H]4C[C@@H](O)[C@@H](O)NC(=O)[C@@H]5[C@@H](O)[C@@H](C)CN5C(=O)[C@H]([C@H](O)CC(N)=O)NC(=O)[C@H]([C@H](O)[C@@H](O)c5ccc(O)c(OS(=O)(=O)O)c5)NC(=O)[C@@H]5C[C@@H](O)CN5C(=O)[C@H]([C@@H](C)O)NC4=O)cc3)no2)cc1	FP1839 fluconazole-resistant	-	0.0156 µg/mL
CCCOc1ccc(N2C(=O)CC(Nc3ccc(Oc4ccc(Cl)cc4)c(Cl)c3)C2=O)cc1	-	-	40 µg/mL
N#CCCN1C(=S)NC2=C(C(=O)CCC2)C1c1ccc(F)cc1	Robin Berkho (AUCC-1720)	-	>40 µg/mL
CC1C(=O)CC(c2ccc(Cl)cc2)N(OCCc2nc3ncccc3[nH]2)C1c1ccc(Cl)cc1	NCIM-C27	-	12.5 µg/mL
Clc1ccc2c(c1)nnc1c3ccccc3[nH]c21	-	-	9.4 µM
CC(=O)OC12CCC(C(=O)C1)C1C(=O)N(CCCN3CCN(c4ncccn4)CC3)C(=O)C12	DSM 1886	broth dilution	>100 µM
Fc1ccccc1CN(Cc1ccc(-c2ccccc2)cc1)n1ccnc1	-	-	200 µM
CC(=O)N(C(C)=O)n1c(Cc2ccc(Cl)cc2)n[nH]c1=O	ATCC16231	-	>250 µg/mL
O=C1CC(Nc2ccc(Oc3ccc(Cl)cc3)c(Cl)c2)C(=O)N1c1cnc2ccccc2c1	-	-	>200 µg/mL
CC(C)C(=N)CCC=C1CO[C@@](Cn2ccnc2)(c2ccc(F)cc2F)C1	A.10231	-	100 µg/mL
O=C1CCCC2=C1C(c1ccc(F)cc1)N1C(=N2)SC2=C1NS(=O)NC2=O	Robin Berkho (AUCC-1720)	-	>40 µg/mL
COC(=O)C(C#N)C1C(=O)C(C)=C(C)C(=O)C1Sc1ccccc1	Berkout KCCM 50235	-	50 µg/mL
COc1ccc(C2C(C)C(=O)C(C)C(c3ccc(OC)cc3)N2OCCc2nc3ncccc3[nH]2)cc1	51 (NCIM-C27)	-	50 µg/mL
Nc1c2c(nc(=S)n1Cc1ccccc1)N1C(=NC3=C(C(=O)CCC3)C1c1ccc(F)cc1)S2	Robin Berkho (AUCC-1720)	-	>40 µg/mL

A second listing of 5 rows from above:

structure,strain,method,value
CCc1n[nH]c(=O)n1-c1ccncc1,ATCC16231,-,>250 µg/mL
CC1C(=O)CC(c2ccc(Cl)cc2)N(OCCc2nc3ncccc3[nH]2)C1c1ccc(Cl)cc1,NCIM-C27,-,12.5 µg/mL
CC(=O)OCCn1c(Cc2ccc([N+](=O)[O-])cc2)nn(C(C)=O)c1=O,ATCC16231,-,>250 µg/mL
O=C1CCCC2=C1C(c1ccc(F)cc1)N1C(=N2)SC2=C1NS(=O)NC2=O,Robin Berkho (AUCC-1720),-,>40 µg/mL
CC(=O)OC12CCC(C(=O)C1)C1C(=O)NC(=O)C12,DSM 1886,broth dilution,>100 µM